Details: 100 kPa, Liquid; for electrical conductivity: Alternating current cell with electrodes; for viscosity: Concentric cylinders viscometry; for mass density: Vibrating tube method

CCCC[N+]1(C)CCCC1.O=S(=O)(F)[N-]S(=O)(=O)F [1-butyl-1-methylpyrrolidinium bis(fluorosulfonyl)amide]
Details | electrical conductivity [S/m] | mass density [kg/m3] | viscosity [mPa·s]
298.15 K | 0.866 | 1307 | 53.24
300.15 K | 0.917 | 1306 | 49.74
306.15 K | 1.09 | 1301 | 40.74
312.15 K | 1.27 | 1296 | 33.83
318.15 K | 1.47 | 1292 | 28.42
324.15 K | 1.68 | 1287 | 24.15
330.15 K | 1.91 | 1283 | 20.73
336.15 K | 2.16 | 1278 | 17.94
341.15 K | – | 1274 | 16.01
348.15 K | 2.69 | 1269 | 13.77
355.15 K | – | 1264 | 11.95
361.15 K | 3.31 | 1259 | 10.65
373.15 K | – | 1251 | 8.61

CCCCC[P+](CC)(CC)CC.O=S(=O)(F)[N-]S(=O)(=O)F [triethyl(pentyl)phosphonium bis(fluorosulfonyl)amide]
Details | electrical conductivity [S/m] | mass density [kg/m3] | viscosity [mPa·s]
298.15 K | 0.463 | 1219 | 69.38
300.15 K | 0.495 | 1217 | 64.02
306.15 K | 0.602 | 1213 | 50.72
312.15 K | 0.723 | 1208 | 40.86
318.15 K | 0.861 | 1204 | 33.4
324.15 K | 1.02 | 1199 | 27.65
330.15 K | 1.19 | 1195 | 23.17
336.15 K | 1.37 | 1191 | 19.66
341.15 K | – | 1187 | 17.25
348.15 K | 1.76 | 1182 | 14.52
355.15 K | – | 1177 | 12.37
361.15 K | 2.23 | 1173 | 10.86
373.15 K | – | 1165 | 8.543
